Compound potency records, mixed from different reports. Data source: NIAID ChemDB in PubChem.

All rows: whole-cell or culture tests; agent: HIV-1; measure: EC50

ECn: concentration that inhibits the pathogen or its effect by n%.

SMILES	mutations	read by	strain or isolate	cells	conditions	value
O=c1[nH]c(=O)n([C@H]2C[C@H](F)[C@@H](CO)O2)cc1Cl	RT-M184V	plaque count	RT M184V (3TC FTC resistant)	CD4+HELA + HeLa		17.6 µM
COC(=O)Nc1cc(C#N)cc(C(=O)c2cc(Cl)ccc2OCC(=O)Nc2ccc(S(N)(=O)=O)cc2C)c1	K103N			HeLa		0.014 µM
CCc1c(Sc2ccccn2)n(COCc2ccccc2)c(=O)[nH]c1=O		cytopathic effect / XTT	IIIB	CEM + CEM-SS		0.008 µM
Nc1ncnc2c1ncn2[C@@H]1O[C@H](COP(=O)(O)OP(=O)(O)OP(=O)(O)O)[C@@H](O)[C@H]1O		p24	IIIB	MOLT4 + MOLT-4		>1826 µM
O=c1[nH]c(=O)n(C2OC(CO)CC2F)cc1I				PBM		>100 µM
Cn1c(CN(CCN2CCCCC2)CC2CCCN(C3CCCC3)C2)nc2ccccc21		β-galactosidase	BaL	MAGI		>10 µM
COC(=O)[C@H](C)NP(=O)(OC[C@@H]1C=C[C@H](n2cc(C)c(=O)[nH]c2=O)O1)Oc1ccccc1		syncytia	IIIB	CEM/dCK- + CEM		0.12 µM
Cc1cn([C@H]2C[C@H](N=[N+]=[N-])[C@@H](CO)O2)c(=O)[nH]c1=O	RT-M41L T215Y	p24	S762-4 Clinical isolate ZDV-resistant	PBMC		1.2 µM
Cc1cn([C@H]2CC[C@@H](O)[C@H]2CO)c(=O)[nH]c1=O				CEM + CEM/0		>250 µM
CCCCCCCCCCCCCCCCCC(=O)OCC(COP(=O)(O)OP(=O)(O)OC[C@@H]1CC[C@H](n2cc(C)c(=O)[nH]c2=O)O1)OC(=O)CCCCCCCCCCCCCCCCC		plaque count		HeLa + HELA CD4+		1 µM
CCCCCN1CC[C@H](c2ccc(F)cc2)[C@@H](COc2ccc3c(c2)OCCO3)C1		p24	IIIB	MOLT-3		>4 µg/mL
COc1ccc(S(=O)(=O)N(CC(C)C)C[C@@H](O)[C@H](Cc2ccccc2)NC(=O)O[C@H]2CO[C@H]3OCC[C@H]32)cc1		virus yield	IIIB	H9(HIV-1(IIIB)) + H9		0.001 µM
CN1CC[C@H](c2ccccc2)[C@@H](COc2ccc3c(c2)OCCO3)C1		p24	IIIB	MOLT-3		>4 µg/mL
Oc1ccc2c(c1)C(N1CCNCC1)=Nc1ccccc1N2		cytopathic effect / MTT	IIIB	CEM-T4 + CEM		>181 µg/mL
CC(=O)Nc1cc(C#N)cc(C(=O)c2cc(Cl)ccc2OCC(=O)Nc2ccc(S(N)(=O)=O)cc2C)c1	Y181C			HeLa		0.14 µM
Cc1nnc(C(=O)NC(C)(C)c2nc(C(=O)NCc3ccc(F)cc3)c(O)c(=O)n2C)o1	+Vpx		NL4-3	MDM		0.031 µM
CC(C)OC(=O)OCOP(=O)(CO[C@H](C)Cn1cnc2c(N)ncnc21)OCOC(=O)OC(C)C	A114S/M184V/A502V	GFP	NL4-3	TZM-gfp		0.03 µM
Cc1cccc2c1OP(=O)(OC[C@H]1[C@H](n3cc(C)c(=O)[nH]c3=O)CC[C@@H]1O)OC2				CEM + CEM/0		80 µM
Fc1ccc([C@@H]2CCNC[C@H]2COc2ccc3c(c2)OCCO3)cc1		syncytia	IIIB	MOLT-3		>4 µg/mL
Nc1ncnc2c1ncn2[C@@H]1O[C@H](CO)[C@@H](O)[C@H]1O		p24	IIIB	MOLT4 + MOLT-4		>1531 µM
Cc1cn([C@H]2C=C[C@@H](CO)O2)c(=O)[nH]c1=O		RT activity	SF162 R5	PBL (resting) + PBL		>4 µM
CSc1ccc2c(c1)N=C(N1CCNCC1)c1ccccc1N2		cytopathic effect / MTT	IIIB	CEM-T4 + CEM		23 µg/mL
O=C(Nc1ccccc1)C1=COCCS1	RT-P236L	cytopathic effect / XTT	IIIB HEPT-resistant (RT P236L)	CEM + CEM-SS		1.4 µM
Cc1cc(S(N)(=O)=O)ccc1NC(=O)COc1ccc(Cl)cc1C(=O)c1cc(C#N)cc(CO)c1	Y181C			HeLa		0.0064 µM
Nc1ncc(CN(CCN2CCCCC2)CC2CCCN(C3CCCC3)C2)cn1		β-galactosidase	LAI	MAGI		7.8 µM
O=c1[nH]cnc2c1ncn2[C@H]1CC[C@@H](CO)O1		cytopathic effect / MTT	IIIB	CEM-T4 + CEM		0.43 µg/mL
Cc1cc(S(N)(=O)=O)ccc1NC(=O)COc1ccc(Cl)cc1C(=O)c1cc(C#N)cc(OC(F)(F)F)c1	V106A			HeLa		0.0019 µM
O=C(C1CSCN1)N1CCSC1		syncytia	LAV	CEM/MOLT-4		>1000 µM
CN1CCN(CCCN2c3ccccc3Sc3ccc(N)cc32)CC1		syncytia		CD4+HeLa + HELA CD4+		5.8 µM
Cc1cn([C@H]2C[C@H](N=[N+]=[N-])[C@@H](CO)O2)c(=O)[nH]c1=O	RT-P236L	cytopathic effect / XTT	IIIB	CEM + CEM-SS		0.01 µM
CCOC(=O)c1cc(C#N)cc(C(=O)c2cc(Cl)ccc2OCC(=O)Nc2ccc(S(N)(=O)=O)cc2C)c1	V106A			HeLa		0.12 µM
COc1ccc(CN[C@@H](C(=O)N[C@H]2c3ccccc3C[C@H]2O)[C@H](O)[C@H](Cc2ccccc2)NC(=O)[C@@H](NC(=O)OCc2ccccc2)C(C)(C)C)cc1		p24	IIIB	Primary T4 cells + T4		0.035 µM
CC(C)=CCN1Cc2cc(Cl)cc3[nH]c(=S)n(c23)C[C@@H]1C	RT-M41L T215Y A98G			MT-4		<3 µM
Cc1nc2ccccc2n1C1C[C@H]2CC[C@@H](C1)N2CCC(C)(CN(C)S(=O)(=O)c1ccccc1)c1ccccc1		luciferase		HOS-CD4-CCR5		<0.01 µM
CN1CCN(C2=Nc3cc(O)ccc3Nc3ccccc32)CC1		cytopathic effect / MTT	IIIB	CEM-T4 + CEM		37 µg/mL
Nc1nc(NC2CC2)c2ncn([C@H]3C=C[C@@H](CO)C3)c2n1	+Vpx		NL4-3	MDM		0.003 µM
Cc1cn([C@H]2C[C@H](N=[N+]=[N-])[C@@H](CO)O2)c(=O)[nH]c1=O			IIIB	CBMC		0.002 µM
Cc1nc2ccccc2n1C1C[C@@H](C)N(CC[C@H](NC(=O)C2CCC2)c2ccccc2)[C@@H](C)C1			BAL R5	PM1		<0.053 µM
Nc1ccn([C@H]2CC[C@@H](CO)O2)c(=O)n1		syncytia	IIIB	CEM/dCK- + CEM		20 µM
COc1ccc(CN[C@@H](C(=O)N[C@H](C(=O)NCc2nc3ccccc3[nH]2)C(C)C)[C@H](O)[C@H](Cc2ccccc2)NC(=O)[C@@H](NC(=O)OCc2ccccc2)C(C)(C)C)cc1		p24	HEM	Primary T4 lymphocytes + T4	clinical isolate	0.01 µM
O=c1[nH]c(=O)n([C@H]2O[C@@H](CO)C[C@H]2F)cc1F				PBM		>100 µM
Nc1nc(=O)n([C@H]2CS[C@@H](CO)O2)cc1F		plaque count	HXB2	HELA/CD4 + HELA CD4+		6.85 µM
Cc1cc(S(N)(=O)=O)ccc1NC(=O)COc1ccc(Cl)cc1C(=O)c1cc(C#N)cc(C(=O)O)c1	Y181C			HeLa		>2 µM
Fc1ccc([C@H]2CCNC[C@@H]2COc2ccc3c(c2)OCCO3)cc1		p24	IIIB	MOLT-3		>4 µg/mL
Cc1cc(S(N)(=O)=O)ccc1NC(=O)COc1ccc(Cl)cc1C(=O)c1cc(C#N)cc(C(=O)N2CCC2)c1	WTRVA			HeLa		0.018 µM
CC(=O)CCCCn1c(=O)c2c(ncn2C)n(C)c1=O		p24		U1/HIV-1 + U1		1000 µM
CNc1ncnc2nc[nH]c12		p24	IIIB	MOLT4 + MOLT-4		>388 µM
O=C(CCCN1CCC(O)(c2ccc(Cl)cc2)CC1)c1ccc(F)cc1		cytopathic effect / MTT	IIIB	CEM-T4 + CEM		>132 µg/mL
O=c1[nH]c(=O)n([C@H]2O[C@@H](CO)C[C@H]2F)cc1Cl				PBM		>100 µM
Oc1ccc2c(c1)Nc1ccccc1C(N1CCNCC1)=N2		cytopathic effect / MTT	IIIB	CEM-T4 + CEM		>173 µg/mL
CNCCC=C1c2ccccc2CCc2ccccc21		p24	IIIB	MOLT-3		>5 µg/mL
Cc1nc2ccccc2n1C1(C)CCN(CC[C@H](NC(=O)C2CCC2)c2ccccc2)CC1			BAL R5	PM1		<0.14 µM
Cc1cn([C@H]2C=C[C@@H](CO)O2)c(=O)[nH]c1=O				CEM + CEM/0		0.37 µM
Nc1ccn([C@H]2CC[C@@H](CO)O2)c(=O)n1		syncytia		HeLa + HELA CD4+		<0.1 µg/mL
COc1ccc(OC[C@@H]2CN(C)CC[C@H]2c2ccccc2)cc1		p24	IIIB	MOLT-3		~10 µg/mL
Nc1ccn([C@@H]2CS[C@H](CO)O2)c(=O)n1	RT-D67N T69N K70R M184V T215F K219Q	p24	7295-1 NRTI resistant recombinant	PBMC		>10 µM
c1ncc2[nH]cnc2n1		p24	IIIB	MOLT4 + MOLT-4		>44 µM
Cc1cccc2c1OP(=O)(OC[C@H]1C[C@H](n3cc(C)c(=O)[nH]c3=O)C[C@@H]1O)OC2				CEM + CEM/0		25 µM
Cc1c(-c2cnccn2)ssc1=S		p24		ACH-2(PMA+) + ACH2		>60 µM
O=c1[nH]cnc2c1ncn2[C@H]1CC[C@@H](CO)O1		RT activity	BZ X4	PBL (activated) + PBL		9 µM
C=C1[C@H]2CCC3C(CCC4[C@@]3(C)CCC[C@@]4(C)C(=O)O)(C2)[C@@H]1OC(C)=O		syncytia	MC99 (Tat/Rev defective)	1A2		30.8 µg/mL
Nc1nc2c(ncn2[C@H]2O[C@@H](CO)C[C@@H]2F)c(=O)[nH]1				PBM		>100 µM
Cc1cc(S(N)(=O)=O)ccc1NC(=O)COc1ccc(Cl)cc1C(=O)c1cc(C#N)cc(C(=O)N2CCCC2)c1	WTRVA			HeLa		0.048 µM
O[C@H]1[C@H](O)[C@@H](O)CN2CC[C@H](O)[C@H]12		syncytia		HeLa + HELA CD4+		10.97 µg/mL
C[C@@]12CCC[C@@](C)(C(=O)O)C1CC[C@@]13C[C@H](CCC12)[C@](C)(O)C3		syncytia	MC99 (Tat/Rev defective)	1A2		66.5 µg/mL
Cc1cn([C@H]2C[C@H](N=[N+]=[N-])[C@@H](CO)O2)c(=O)[nH]c1=O		RT activity	IIIB	PBL (resting) + PBL		0.033 µM
Cc1cn([C@H]2C[C@H](N=[N+]=[N-])[C@@H](CO)O2)c(=O)[nH]c1=O	RT-M41L E44D D67N T69D L210W T215Y	p24	T156-3 NRTI resistant	PBMC		>3.2 µM
O=C(OC[C@H]1O[C@@H](OC(=O)c2cc(O)c(O)c(O)c2)[C@H](O)[C@@H](OC(=O)c2cc(O)c(O)c(O)c2)[C@@H]1O)c1cc(O)c(O)c(O)c1		p24	IIIB	MOLT-3		<33 µg/mL
O=C(C1CSCN1C(=O)OCc1ccccc1)N1CCSC1		syncytia	LAV	CEM/MOLT-4		>100 µM
Cc1cc(S(N)(=O)=O)ccc1NC(=O)COc1ccc(Cl)cc1C(=O)c1cc(N)cc(C#N)c1	WTRVA			HeLa		0.0015 µM
COC(=O)[C@H](C)NP(=O)(OC[C@@H]1C=C[C@H](n2cc(C)c(=O)[nH]c2=O)O1)Oc1ccc(Br)cc1	RT-T69K K70G V75I F77L F116Y Q151M M184V	RT activity	1617-1 NRTI resistant recombinant	PBMC		0.0058 µM
CC(=O)N1CCC(C(=O)N(CCCN2CCC(Cc3ccc(C(N)=O)cc3)CC2)c2ccc(C)c(Cl)c2)CC1		luciferase	R5 subtype A_2 recombinant	U87 (CD4+ CCR5+) + U87		0.014 µM
O=c1[nH]cnc2c1ncn2[C@H]1CC[C@@H](CO)O1			NL4-3	Primary T lymphocytes		0.481 µM
Cc1ccnc2c1NC(=O)c1cccnc1N2C1CC1	RT-K101E	β-galactosidase	NNRTI-resistant (RT K101E)	MAGI		0.52 µM
NC[C@@H]1O[C@H](O[C@H]2[C@@H](O)[C@H](O[C@@H]3[C@@H](O)[C@H](N)C[C@H](N)[C@H]3O[C@H]3O[C@H](CN)[C@@H](O)[C@H](O)[C@H]3N)O[C@@H]2CO)[C@H](N)[C@@H](O)[C@@H]1O		p24 / ELISA		U1/HIV-1 + U1	chronic infection	<100 µM
Cc1cn([C@H]2O[C@@H](CO)C[C@H]2F)c(=O)[nH]c1=O				PBM		190 µM
COc1ccc2c(c1)c1c3c(c4c5ccccc5n(C)c4c1n2CCC#N)C(=O)NC3=O		syncytia		U1/HIV-1(+PMA) + U1		0.028 µM
Nc1ccn([C@H]2CC[C@@H](CO)O2)c(=O)n1		plaque count	HXB2	HELA/CD4 + HELA CD4+		0.42 µM

A second listing of 6 rows from above:

SMILES	mutations	read by	strain or isolate	cells	conditions	value
COc1ccc(OC[C@@H]2CN(C)CC[C@H]2c2ccccc2)cc1		p24	IIIB	MOLT-3		~10 µg/mL
Oc1ccc2c(c1)Nc1ccccc1C(N1CCNCC1)=N2		cytopathic effect / MTT	IIIB	CEM-T4 + CEM		>173 µg/mL
Cc1cc(S(N)(=O)=O)ccc1NC(=O)COc1ccc(Cl)cc1C(=O)c1cc(C#N)cc(C(=O)N2CCC2)c1	WTRVA			HeLa		0.018 µM
CC(=O)N1CCC(C(=O)N(CCCN2CCC(Cc3ccc(C(N)=O)cc3)CC2)c2ccc(C)c(Cl)c2)CC1		luciferase	R5 subtype A_2 recombinant	U87 (CD4+ CCR5+) + U87		0.014 µM
Cc1cc(S(N)(=O)=O)ccc1NC(=O)COc1ccc(Cl)cc1C(=O)c1cc(C#N)cc(C(=O)O)c1	Y181C			HeLa		>2 µM
O=c1[nH]c(=O)n([C@H]2O[C@@H](CO)C[C@H]2F)cc1F				PBM		>100 µM

Blank or dashed fields: not listed here. Rows are shuffled and stem from different studies.